Measured values from several laboratories, pooled; numbers as filed in NIAID ChemDB.

Shared fields: tests in culture; agent: Candida tropicalis; measure: MIC80

Lines come from different laboratories, so protocols vary.

SMILES,strain,method,result
CC(C)(C)N1C(=O)C=CC1=O,KKP 334,broth dilution,0.5 µg/mL
CCCC(=O)OC1CCN(CC(O)(Cn2cncn2)c2ccc(F)cc2F)CC1,,broth dilution,0.153 µM
Cc1ccc(/C(CCn2ccnc2)=N/OC(=O)c2ccc(Cl)cc2)cc1,,agar diffusion,0.3398 µg/mL
Cc1ccc(-c2c3c(N)c4c(nc3nc3c2c(C)nn3-c2ccccc2)CCC4)cc1,CCC 131,broth dilution / absorbance,125 µg/mL
O=C(O/N=C(\CCn1ccnc1)c1ccccc1)c1ccccc1Cl,,agar diffusion,0.3535 µg/mL
CCCCN(Cc1cn(Cc2c(Cl)cccc2Cl)nn1)CC(O)(Cn1cncn1)c1ccc(F)cc1F,,,8 µg/mL
COc1ccc(/C(CCn2ccnc2)=N/OC(=O)c2ccc(Cl)cc2)cc1,,agar diffusion,0.3257 µg/mL
CN(CC(=O)Nc1ccc(F)cc1)CC(O)(Cn1cncn1)c1ccc(F)cc1F,,,64 µg/mL
O=C(/C=C/c1ccc(Br)cc1)OC1CCN(CC(O)(Cn2cncn2)c2ccc(F)cc2F)CC1,,broth dilution,0.458 µM
O=C1C=CC(=O)N1c1ccccc1,KKP 334,broth dilution,1 µg/mL
COc1cc(C(=O)O/N=C(\CCn2ccnc2)c2ccccc2)cc(OC)c1OC,,agar diffusion,0.3053 µg/mL
O=C(/C=C/c1ccc(Cl)cc1Cl)OC1CCN(CC(O)(Cn2cncn2)c2ccc(F)cc2F)CC1,,broth dilution,0.466 µM
Clc1ccc(COC(Cn2ccnc2)c2ccc(Cl)cc2Cl)c(Cl)c1,,agar diffusion,0.0024 µg/mL
O=C1C=CC(=O)N1c1ccc(Br)cc1,KKP 334,broth dilution,2 µg/mL
COc1ccc(C(=O)O/N=C(\CCn2ccnc2)c2ccccc2)cc1,,agar diffusion,0.3582 µg/mL
O=C(CC1=Nc2ccccc2C1)OC1CCN(CC(O)(Cn2cncn2)c2ccc(F)cc2F)CC1,,broth dilution,0.126 µM
O=C(O/N=C(\CCn1ccnc1)c1ccccc1)c1ccc(Cl)cc1,,agar diffusion,0.1767 µg/mL
CN(CC(=O)Nc1ccc(C(C)(C)C)cc1)CC(O)(Cn1cncn1)c1ccc(F)cc1F,,,0.0625 µg/mL
O=C(COc1cccc2ccccc12)OC1CCN(CC(O)(Cn2cncn2)c2ccc(F)cc2F)CC1,,broth dilution,0.479 µM
CN(CC(=O)Nc1ccc(OC(F)(F)F)cc1)CC(O)(Cn1cncn1)c1ccc(F)cc1F,,,16 µg/mL
CCC(=O)OC1CCN(CC(O)(Cn2cncn2)c2ccc(F)cc2F)CC1,,broth dilution,0.159 µM
CCCCN(Cc1cn(Cc2ccc(C)cc2)nn1)CC(O)(Cn1cncn1)c1ccc(F)cc1F,,,<0.125 µg/mL
COc1ccc(N2C(=O)C=CC2=O)cc1,KKP 334,broth dilution,2 µg/mL
Cc1ccc(NC(=O)CN(C)CC(O)(Cn2cncn2)c2ccc(F)cc2F)cc1C,,,4 µg/mL
CCN1C(=O)C=CC1=O,KKP 334,broth dilution,1 µg/mL
O/N=C(/CCn1ccnc1)c1ccccc1,,agar diffusion,0.5807 µg/mL
Cc1cc(C)c(N2C(=O)C=CC2=O)c(C)c1,KKP 334,broth dilution,0.5 µg/mL
COc1ccc(/C(CCn2ccnc2)=N\O)cc1,,agar diffusion,0.2549 µg/mL
CCCCN(Cc1cn(Cc2ccc(Cl)cc2Cl)nn1)CC(O)(Cn1cncn1)c1ccc(F)cc1F,,,32 µg/mL

MIC50, MIC90 and the like: level of inhibition, or share of isolates inhibited. Blank or dashed fields: not listed here.